Pooled drug test results. Numbers come from NIAID ChemDB, via PubChem.

All rows: whole-cell or culture tests; agent: Mycobacterium tuberculosis

An empty or dashed field is not shown. For "inactive" no cut-off is given. A number after MIC or MFC names an inhibition level or a share of isolates. Inhibition is in % at the dose shown (toxicity tests: loss of growth or viability). MIC bound comes from a single tested concentration. ECn is the concentration giving n% inhibition of infection, replication or growth. a–b is a range or a potency band. Rows are shuffled and stem from different studies.

compound,dose,cell line,setting,endpoint,read by,changes,strain or isolate,value
Cc1c(N=Nc2ccc(Br)cc2)c(-c2ccccc2)nn1C(=S)S,,,,MIC,,,EMB-R,12.5 µg/mL
CC1(C)CC(N=c2cc3n(-c4ccccc4Cl)c4ccccc4nc-3cc2Nc2ccccc2Cl)CC(C)(C)N1,,Macrophages,inside macrophages,MIC,,,H37Rv,0.06 µg/mL
CC(=O)NCC(CC[C@H](OC(C)=O)[C@@H](COC(C)=O)OC(C)=O)OC(C)=O,12.5 µg/mL,,,inhibition,agar,,H37Rv,inactive
Br.NCC(=O)NC(CO)C(=O)NCC(=O)Oc1ccc([N+](=O)[O-])cc1,12.8 µg/mL,,,inhibition,BACTEC,,H37Rv,32%
CCCCCCCCC=CCCCCCCCCNCc1cccnc1,,,,MIC,,,Sensitive strains,3.12 µg/mL
COC(=O)c1coc(CSc2nc(N)c3c4c(sc3n2)CC(C(C)(C)C)CC4)n1,,,,MIC,MTT / visual reading,,H37Rv,6.2 µg/mL
Oc1ccccc1CNCCCCCCCCCCCCNCc1ccccc1O,,,,MIC,,,H37Ra,<25 µg/mL
NC(=O)c1[nH]c(COCCO)nc1N,,,,MIC bound,BACTEC,,H37Rv,>12.5 µg/mL
CCCCCCCCC=CCCCCCCCCNCc1ccc(O)c(OC)c1,,,,MIC,,,Clinical isolates MDR,25 µg/mL
O=C(CCC(F)(F)F)N1CCC(F)(c2cncc(Cl)c2)CC1,,THP-1,,EC50,fluorescence,,H37Rv,<0.05 µM
CCn1cc(C(=O)O)c(=O)c2cc(F)c(N3CCNC(C)C3)c(F)c21,,,,MIC50,,,79 strains (drug-susceptible),0.96 µg/mL
CC(=O)NCCCC[C@@H](OC(C)=O)[C@@H](COC(C)=O)OC(C)=O,25 µg/mL,,,inhibition,agar,,H37Rv,100%
O=C(CCC(F)(F)F)N1CCC(c2ccc(F)nc2)CC1,,THP-1,,EC50,fluorescence,,H37Rv,0.05–0.25 µM
CC1(C)CC(N=c2cc3n(-c4cc(Cl)cc(Cl)c4)c4ccccc4nc-3cc2Nc2cc(Cl)cc(Cl)c2)CC(C)(C)N1,,,,MIC,,,TBRP171 (INH RMP-resistant),0.03 µg/mL
CC(=O)OC[C@@H](OC(C)=O)[C@H](/C=C/CC[N+](=O)[O-])OC(C)=O,6.25 µg/mL,,,inhibition,agar,,H37Rv,100%
COc1cc(C2c3cc4c(c(OC(=O)c5ccccn5)c3CC3COC(=O)C32)OCO4)cc(OC)c1OC,,,,MIC bound,BACTEC,,H37Rv,>12.5 µg/mL
O=C1c2cc(Cl)nnc2Oc2ccccc2N1Cc1ccccc1,,,,EC50,BACTEC,,H37Rv,>12.5 µg/mL
FC(F)(F)c1cc(NCCN2CCOCC2)c2cccc(C(F)(F)F)c2n1,6.25 µg/mL,,,inhibition,,,H37Rv,49%
Cc1ccc(NC(=S)N=Nc2c(O)[nH]c3ccc(OC(F)(F)F)cc23)cc1,,,,EC90,broth dilution / resazurin,,H37Rv,>100 µg/mL
CCCCCCCCCC(=O)N[C@H]1[C@H](Oc2c3cc4cc2Oc2ccc(cc2Cl)[C@@H](O[C@@H]2O[C@H](CO)[C@@H](O)[C@H](O)[C@H]2NC(C)=O)[C@@H]2NC(=O)[C@H](NC(=O)[C@@H]4NC(=O)[C@H]4NC(=O)[C@@H](Cc5ccc(c(Cl)c5)O3)NC(=O)[C@H](N)c3ccc(O)c(c3)Oc3cc(O)cc4c3)c3ccc(O)c(c3)-c3c(O[C@H]4O[C@H](CO)[C@@H](O)[C@H](O)[C@@H]4O)cc(O)cc3[C@H](C(=O)O)NC2=O)O[C@H](CO)[C@@H](O)[C@@H]1O,,,,MIC,,,L1912,64 µg/mL
CCOC(=O)c1cn(C)c2c(cc([N+](=O)[O-])c3cccnc32)c1=O,,,,MIC90,,gyrA mutation D94G,H37Rv,0.21 µM
CNC(=O)c1nn(C)c(=O)[nH]c1=O,,,,MIC,BACTEC,,H37Rv,≥12.5 µg/mL
NC(=O)c1cnccn1,800 µg/mL,,7 d,inhibition,,,TMC311,-10%
CC(C)(C)C1CCc2c(sc3nc(SCc4ccn[nH]4)nc(N)c23)C1,,,,MIC,MTT / visual reading,,H37Rv,100 µg/mL
COc1cncc(C2CCN(C(=O)CCC(F)(F)F)CC2)c1,,THP-1,,EC50,fluorescence,,H37Rv,0.05–0.25 µM
CCCCNC(CC(=O)OCC)c1cccc(Cl)c1,,,,MIC,,,H37Ra,>25 µg/mL
NNC(=O)c1ccncc1,,,,MIC,,,1S,0.1 µg/mL
CCOC(=O)C(C)(C)Sc1nc(N)c2c3c(sc2n1)CC(C(C)(C)C)CC3,,,,MIC,MTT / visual reading,,H37Rv,>200 µg/mL
O[C@H](c1cc(C(F)(F)F)nc2c(C(F)(F)F)cccc12)[C@H]1CCCCN1,,,,MIC bound,resazurin,,H37Rv,>6.25 µg/mL
CO[C@H]1/C=C/O[C@@]2(C)Oc3c(C)c(O)c4c(=O)c(c5oc6cc(N7CCN(CC(C)C)CC7)cc(=O)c6nc5c4c3=C2O)NC(=O)/C(C)=C\C=C\[C@H](C)[C@H](O)[C@@H](C)[C@@H](O)[C@@H](C)[C@H](OC(C)=O)[C@@H]1C,1 µg/mL,,inside macrophages,inhibition,,,FUJII,94.6%
FC(F)(F)c1cc(NCCCCCCCCCNc2cc(C(F)(F)F)nc3c(C(F)(F)F)cccc23)c2cccc(C(F)(F)F)c2n1,6.25 µg/mL,,,inhibition,,,H37Rv,89%
NC1=NN(c2ccccc2)C(=O)C1C(=O)CCC(=O)Nc1cccc(C(F)(F)F)c1,6.25 µg/mL,,,inhibition,BACTEC,,H37Rv,0%
CCSc1nc(N)c2c3c(sc2n1)CC(C(C)(C)C)CC3,,,,MIC,MTT / visual reading,,H37Rv,200 µg/mL
[O-][n+]1c2ccccc2nc2cc(Cl)ccc21,,,,MIC,,,H37Rv,6.25 µg/mL
CC(=O)NC(C)C(CC[C@H](OC(C)=O)[C@@H](COC(C)=O)OC(C)=O)OC(C)=O,25 µg/mL,,,inhibition,agar,,H37Rv,inactive
O=[N+]([O-])c1ccc(NC(=S)N=Nc2c(O)n(CN3CCOCC3)c3ccc(OC(F)(F)F)cc23)cc1,,,,EC90,broth dilution / resazurin,,H37Rv,>100 µg/mL
CC1CN(c2cc3c(cc2F)c(=O)c(C(=O)O)c2n3CS2)CC(C)O1,,,,MIC,agar,,H37Rv,4.28 µM
C[C@H]1COc2c(N3CCN(C)CC3)c(F)cc3c(=O)c(C(=O)O)cn1c23,,,,MIC,,,2S,0.5 µg/mL
O=C(O)c1c2n(c3cc(N4CCN(C(=O)c5ccco5)CC4)c(F)cc3c1=O)CS2,,,,MIC,agar,,H37Rv,3.63 µM
COc1cc(O)c2c(O)c3c(=O)cc(C)oc3cc2c1,,,,MIC,,,KM-R,>12.5 µg/mL
O=C(O)c1c2n(c3cc(N4CCC(O)(c5ccc(Cl)cc5)CC4)c([N+](=O)[O-])cc3c1=O)CS2,,,,MIC,agar,,H37Rv,0.8 µM
NC[C@@H]1O[C@H](O[C@H]2[C@@H](O)[C@H](O[C@@H]3[C@@H](O)[C@H](N)C[C@H](N)[C@H]3O[C@H]3O[C@H](CO)[C@@H](O)C[C@H]3N)O[C@@H]2CO)[C@H](N)[C@@H](O)[C@@H]1O[C@H]1O[C@H](CO)[C@@H](O)[C@H](O)[C@@H]1O,,,,EC50,,,Aoyama B (isoniazid-resistant),25–50 µg/mL
O=C1NC2(c3ccccc3)NC(=O)NC2(c2ccccc2)N1,12.5 µg/mL,,,inhibition,BACTEC,,H37Rv,13%
CCCCCCCCCCCCNCc1ccccc1O,,,,MIC,,,Clinical isolates MDR,25 µg/mL
COc1cc(CSc2nc(N)c3c4c(sc3n2)CC(C(C)(C)C)CC4)on1,,,,MIC,MTT / visual reading,,H37Rv,>200 µg/mL
Nc1c(C(=O)Nc2ccccc2)[n+]([O-])c2ccccc2[n+]1[O-],,,,MIC,,,PZA-R,6.3 µg/mL
FC(F)(F)c1cc(NCCCCNc2cc(C(F)(F)F)nc3c(C(F)(F)F)cccc23)c2cccc(C(F)(F)F)c2n1,6.25 µg/mL,,,inhibition,,,H37Rv,14%
CCn1cc(C(=O)O)c(=O)c2ccc(C)nc21,,,,MIC90,,gyrA mutation A90V,BCG,>50 µM
O=C(CCC(F)(F)F)N1CCC(c2ccc(C(F)(F)F)nc2)CC1,,THP-1,,EC50,fluorescence,,H37Rv,1–10 µM
Nc1c(-c2cn(Cc3ccccc3)c3ccccc23)[n+]([O-])c2ccccc2[n+]1[O-],,,,MIC,BACTEC,,H37Rv,≥12.5 µg/mL
CCCCCCCCCCCCNC(CCO)c1cccc([N+](=O)[O-])c1,,,,MIC,,,Sensitive strains,12.5 µg/mL
Cc1ccc(NC(=S)N=Nc2c(O)n(C)c3ccc(C)cc23)cc1,,,,EC90,broth dilution / resazurin,,H37Rv,>100 µg/mL
CCCCCCCCNCc1ccccc1[N+](=O)[O-],,,,MIC,,,Sensitive strains,12.5 µg/mL
Cc1cc(C)c2c(c1N)C(=O)CCO2,12.5 µg/mL,,,inhibition,BACTEC,,H37Rv,15%
CNC(=S)N=Nc1c(O)n(C)c2ccc(C)cc12,,,,EC50,broth dilution / resazurin,,H37Rv,>100 µg/mL
O=C(O)c1ccncc1,,,,MIC,resazurin,,H37Rv,>25 µg/mL
CC1CO/C(=C2\C(=O)OCC2C)C1,12.5 µg/mL,,,inhibition,BACTEC,,H37Rv,1%
N[C@@H]1CN(c2c(F)cc3c(=O)c(C(=O)O)cn([C@@H]4C[C@@H]4F)c3c2Cl)CC12CC2,,,,MIC,resazurin,Gyrase Asp94Ala,Clinical strain,0.0625–0.25 µg/mL
Cn1cc(NC(=O)c2cc(NC(=O)CN=C(N)N)cn2C)cc1C(=O)NCCC(=N)N,,,,MIC,BACTEC,,H37Rv,1.56 µg/mL
CNC(=S)N=Nc1c(O)[nH]c2ccc(OC(F)(F)F)cc12,,,,EC90,broth dilution / resazurin,,H37Rv,>100 µg/mL
COc1ccc(N2C(=O)C(=O)N(C)C2=O)c2ccccc12,,,,MIC bound,BACTEC,,H37Rv,>12.5 µg/mL
Cc1cc(O)c2c(c1)C(=O)C=CC2=O,,,,MIC,,,Isoniazid/rifampicin-resistant,50 µg/mL
CCCCNC(=S)N=Nc1c(O)n(C)c2ccc(OC(F)(F)F)cc12,,,,EC50,broth dilution / resazurin,,H37Rv,40.76 µg/mL
Cc1nc2c([N+](=O)[O-])cccn2n1,6.25 µg/mL,,,inhibition,resazurin,,H37Rv,1%
FC(F)(F)c1cc(NCCN2CCCC2)c2cccc(C(F)(F)F)c2n1,6.25 µg/mL,,,inhibition,,,H37Rv,62%
CCCCCCCCN1C(=O)c2ccnnc2Oc2cc(C)ccc21,,,,EC50,BACTEC,,H37Rv,>12.5 µg/mL
O=C1c2ccccc2-c2n[nH]c3cccc1c23,,,,MIC bound,BACTEC,,H37Rv,>12.5 µg/mL
NC(=O)c1cnccn1,,,,MIC,,,Isolate 98-32,900 µg/mL
COc1cc2c(c3oc4c(c(=O)c13)CCCC4)CCC(C)(C)O2,,,,MIC bound,BACTEC,,H37Rv,>12.5 µg/mL
CCOC(=O)CC(NCc1ccccc1)c1cccc(Cl)c1,,,,MIC,,,Sensitive strains,12.5 µg/mL
CCNC(=S)N=Nc1c(O)[nH]c2ccc(OC(F)(F)F)cc12,,,,EC90,broth dilution / resazurin,,H37Rv,>100 µg/mL
O=C(O)c1c2n(c3cc(N4CCN(C(=O)C5COc6ccccc6O5)CC4)c(F)cc3c1=O)CS2,,,,MIC,agar,,H37Rv,6.29 µM
CCCCCCN1C(=O)c2ccnnc2Oc2cc(C)ccc21,12.5 µg/mL,,,inhibition,BACTEC,,H37Rv,21%
O=C(CCC(F)(F)F)N1CCC(c2cccc(Cl)n2)CC1,,THP-1,,EC50,fluorescence,,H37Rv,0.05–0.25 µM
CN[C@@H]1[C@H](O[C@H]2[C@H](O[C@H]3[C@H](O)[C@@H](O)[C@H](N=C(N)N)[C@@H](O)[C@@H]3N=C(N)N)O[C@@H](C)[C@]2(O)C=O)O[C@@H](CO)[C@H](O)[C@H]1O,,,,MIC,,,9468 (streptomycin-S),<4 µg/mL
O=C(O)c1cn2c(n1)CN(c1cc3c(cc1F)c(=O)c(C(=O)O)c1n3CS1)CC2,,,,MIC,agar,,H37Rv,0.94 µM
CC(=O)c1c(O)cc2c(c1O)C1CC(C)(CCC1=C(C)C)O2,,,,MIC bound,BACTEC,,H37Rv,>12.5 µg/mL
CC(=O)OC[C@@H](OC(C)=O)[C@@H](/C=C/C(O)C[N+](=O)[O-])OC(C)=O,25 µg/mL,,,inhibition,agar,,H37Rv,100%
CCCCCN1C(=O)c2cc(Cl)nnc2Oc2ccc(C)cc21,,,,EC50,BACTEC,,H37Rv,>12.5 µg/mL

5 of the rows above, restated:

{"compound": "CCSc1nc(N)c2c3c(sc2n1)CC(C(C)(C)C)CC3", "endpoint": "MIC", "read by": "MTT / visual reading", "strain or isolate": "H37Rv", "value": "200 µg/mL"}
{"compound": "O[C@H](c1cc(C(F)(F)F)nc2c(C(F)(F)F)cccc12)[C@H]1CCCCN1", "endpoint": "MIC bound", "read by": "resazurin", "strain or isolate": "H37Rv", "value": ">6.25 µg/mL"}
{"compound": "CCn1cc(C(=O)O)c(=O)c2cc(F)c(N3CCNC(C)C3)c(F)c21", "endpoint": "MIC50", "strain or isolate": "79 strains (drug-susceptible)", "value": "0.96 µg/mL"}
{"compound": "Nc1c(C(=O)Nc2ccccc2)[n+]([O-])c2ccccc2[n+]1[O-]", "endpoint": "MIC", "strain or isolate": "PZA-R", "value": "6.3 µg/mL"}
{"compound": "COc1cc(C2c3cc4c(c(OC(=O)c5ccccn5)c3CC3COC(=O)C32)OCO4)cc(OC)c1OC", "endpoint": "MIC bound", "read by": "BACTEC", "strain or isolate": "H37Rv", "value": ">12.5 µg/mL"}